Measurements reported in PubChem BioAssay AID1259414 (Drosophila RNAi Screening Center, 2018)

- Test: 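Host factors increasing or decreasing Wolbachia levels in cultured fly cells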 (primary screen)
- System: Drosophila JW18 cells infected with Wolbachia
- Knock-down reagent: long dsRNA against Drosophila genes, 0.25 µg dsRNA per well of a 384-well plate
- Duration: 5 days
- Conditions: cells persistently infected with Wolbachia before knock-down; no added drug
- Measured: 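Imaged fluorescence in situ signal for Wolbachia 23S rRNA per DAPI-counted host cell, given as a robust z-score within each plate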
- Reading the numbers: Wolbachia per cell robust z: higher = more Wolbachia per host cell than the plate typical
- Hit rule: 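Hit when robust z is 1.5 or more, or -1.5 or less, in at least two of three replicates; excludes dsRNAs with several or no targets, genes not expressed in JW18 and well A1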
The deposit covers about 24,000 reagents; shown is a random part of those with a known target gene and a result. In the full data, about 1,210 (5%) are marked active. 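Inactive calls also include excluded dsRNAs with several or no targets, genes unexpressed in JW18, and well A1, regardless of score.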 A number with no mark means an inactive call. Names joined by + are all predicted targets of the reagent. Reagent sequences are not shown.

Wolbachia per cell robust z, rep 1 | Wolbachia per cell robust z, rep 2 | Wolbachia per cell robust z, rep 3 | gene | DRSC id
-0.371 | -0.602 | 0.136 | X11L | DRSC19958
-1.72 (active) | 0.403 | -3.23 | X11L | DRSC19959
1.07 | 0.0728 | -0.535 | X11L | DRSC25616
0.236 | -0.177 | -1.97 | Tsen2 (tRNA splicing endonuclease subunit 2) | DRSC01557
0.0201 | -0.584 | -0.522 | Tsen2 (tRNA splicing endonuclease subunit 2) | DRSC27827
-5.69 | -0.631 | -1.03 | CG10920 | DRSC17765
-0.578 | 0.232 | 0.536 | tipE (temperature-induced paralytic E) | DRSC08738
0.603 | -1.05 | 0.818 | tipE (temperature-induced paralytic E) | DRSC29985
0.781 | 1.93 | -0.31 | Cpr23B (Cuticular protein 23B) | DRSC23504
-0.423 | -0.158 | 0.293 | CG16813 | DRSC24977
1.96 (active) | 3.23 | 1.66 | RpL37A (Ribosomal protein L37A) | DRSC02899
1.71 (active) | 4.44 | 3.7 | RpL37A (Ribosomal protein L37A) | DRSC25051
0.0807 | -1.61 | -1.64 | CG5172 | DRSC19936
-1.05 | -0.617 | -6.63 | CG5172 | DRSC23493
1.62 | 0.962 | 0.963 | Vps15 (Vacuolar protein sorting 15) | DRSC16553
0.765 | 0.0892 | 0.363 | CG10862 | DRSC08170
0.0325 | 0.272 | 0.212 | pit (pitchoune) | DRSC17025
-0.0344 | 0.0659 | 0.614 | pit (pitchoune) | DRSC22798
0.851 | 0.731 | 1.11 | pit (pitchoune) | DRSC28254
-0.696 | -0.47 | -0.569 | CtsF (Cathepsin F) | DRSC12056
-1.61 (active) | -0.858 | -1.73 | CtsF (Cathepsin F) | DRSC12195
0.752 | 0.855 | -0.707 | CtsF (Cathepsin F) | DRSC12196
0.863 | 0.806 | 0.662 | CG6220 | DRSC06969
0.0973 | 0.22 | -0.364 | CG15529 | DRSC15066
-0.244 | 1.12 | -0.893 | CG34428 | DRSC10119
-1.78 | 0.19 | 0.489 | Pif1A + Pif1B | DRSC14142
0.564 | 0.819 | 0.447 | Jheh1 (Juvenile hormone epoxide hydrolase 1) | DRSC06529
-0.733 | -0.77 | -0.423 | Jheh1 (Juvenile hormone epoxide hydrolase 1) | DRSC25526
0.707 | 0.576 | 1.47 | Amt (Ammonium transporter) | DRSC16055
-1.5 | -1.56 | 2.2 | Amt (Ammonium transporter) | DRSC27970
-8.04 | 0.305 | -0.712 | RpLP0-like (Ribosomal protein LP0-like) | DRSC06424
-0.115 | 0.0293 | -0.47 | RpLP0-like (Ribosomal protein LP0-like) | DRSC28206
0.825 | 0.681 | 0.506 | CG13185 | DRSC06310
0.0748 | 1.34 | -0.327 | whip (whipple) | DRSC38655
1.03 | 1.47 | 1.33 | CG30371 | DRSC06835
0.144 | 0.628 | 1.02 | eyg (eyegone) | DRSC23136
-0.055 | -0.324 | -0.366 | eyg (eyegone) | DRSC26636
0.227 | -0.0835 | -0.258 | sturkopf | DRSC08637
1.15 | -0.649 | 0.674 | sturkopf | DRSC29932
0.208 | -0.359 | -0.164 | CG14721 | DRSC29246
1.11 | -1.45 | 0.325 | CG14721 | DRSC41611
0.348 | -0.305 | 0.352 | qsm (quasimodo) | DRSC05896
0.0256 | -4.38 | 0.181 | qsm (quasimodo) | DRSC06393
0.567 | 2.16 | -0.915 | qsm (quasimodo) | DRSC25212
0.359 | -0.059 | -0.56 | Trax (Translin associated factor X) | DRSC15709
0.48 | 1.05 | -0.266 | CG9213 | DRSC20170
0.656 | 0.855 | 1.67 | CG9213 | DRSC24500
0.555 | 0.411 | 0.708 | CG14621 | DRSC20635
0.0372 | 0.24 | -0.651 | CG14621 | DRSC27094
-1.37 | 0.986 | -0.0973 | CG14096 | DRSC26975
-0.193 | 0.078 | 0.535 | CG34309 | DRSC14838
-0.838 | -0.0898 | -6.95 | endos (endosulfine) | DRSC10658
0.375 | 0.979 | 0.91 | endos (endosulfine) | DRSC29476
0.84 | -0.727 | 0.992 | Hao + Pex6 | DRSC06704
0.463 | -0.466 | 1.07 | CG34450 | DRSC17822
1.14 | 0.729 | -1.14 | CG34450 | DRSC25085
-0.0856 | -0.846 | 0.162 | CG2233 | DRSC18217
-0.459 | 0.617 | -1.4 | CG3021 | DRSC18165
0.174 | -1.29 | -5.06 | CG3021 | DRSC18652
0.684 | -1.38 | -0.042 | ex (expanded) | DRSC00817
-0.608 | 1.73 | -0.73 | ex (expanded) | DRSC23963
-0.704 | 0.551 | -0.487 | obst-E (obstructor-E) | DRSC02128
0.238 | -1.91 | -0.943 | obst-E (obstructor-E) | DRSC25834
-3.63 | -0.461 | 0.851 | CG33642 | DRSC38915
-0.691 | -1.23 | -0.527 | Srp19 (Signal recognition particle 19) | DRSC11288
-0.571 | -0.0442 | 0.671 | Srp19 (Signal recognition particle 19) | DRSC24706
0.0821 | 0.0566 | 0.318 | c11.1 | DRSC18749
-1.95 | 0.246 | -1.05 | wus (wurst) | DRSC20278

Records listed so far whose gene name begins with X or x (3):
Wolbachia per cell robust z, rep 1 | Wolbachia per cell robust z, rep 2 | Wolbachia per cell robust z, rep 3 | gene | DRSC id
-0.371 | -0.602 | 0.136 | X11L | DRSC19958
-1.72 (active) | 0.403 | -3.23 | X11L | DRSC19959
1.07 | 0.0728 | -0.535 | X11L | DRSC25616
